According to patent publication US20260215432A1, “ANTIMICROBIAL CONJUGATED OLIGOELECTROLYTES AND METHODS THEREOF” (National University of Singapore, priority 2023, published 2026):

Tested on: A549 (lung epithelial cells)
Assay: Cytotoxicity against mammalian cell line
Assay type: cell-based
Settings: IC50 (A549) divided by MIC towards MRSA
Description: The cytotoxicity of the TPP COEs was also tested against a mammalian cell line (A549).

| SMILES | Selectivity Index |
| --- | --- |
| C[N+](C)(C)CCCCCCOc1ccc(/C=C/c2ccc(OCCCCCC[N+](C)(C)C)cc2)cc1.[I-].[I-] [Compound D6, reference compound] | 1.2 |
| C[N+](C)(C)CCCCCCCCOc1ccc(/C=C/c2ccc(OCCCCCCCC[N+](C)(C)C)cc2)cc1.[I-].[I-] [Compound D8, reference compound] | 1.4 |
